Source: paper PMC3631186, “Structure of a Novel Shoulder-to-Shoulder p24 Dimer in Complex with the Broad-Spectrum Antibody A10F9 and Its Implication in Capsid Assembly” (PLoS ONE, 2013)

Molecular target: p24 of HIV-1 NL4-3 (from the proviral plasmid pNL4-3) (HIV-1 NL4-3 (gag from isolate NY5, …, UniProt P12493, strain))
Assay: immunostaining of cells or tissue
Details: one partner purified

B1: A10F9 monoclonal antibody (antibody, V domains shown)
VH: DVKLVESGGGLVKPGGSLKLSCAASGFTFSSYTMSWVRQTPEKRLEWVAIISSGGSYTYYSDSVKGRFTISRDNAKNTLYLQMSSLKSEDTAMYYCTRDEGNGNYVEAMDYWGQGTSVTVSS
VL: DIQMTQSPASLSASVGETVTITCRASGNIHNYLAWYQQKQGKSPQLLVYNAKTLADGVPSRFSGSGSGTQYSLKINSLQPEDFGSYYCQHFWSTPRTFGGGTKLEIK
notes: also called A10F9 mAb; mAb A10F9
  binding result: binds
